From patent publication US7625917B2, “Thiolesters and uses thereof” (priority 1998, dated 2009) come the findings set out here.

In this series the test system is HIV-1RF. In words: XTT cytoprotection assay (antiviral activity). In kind it is cell-based. From the text: One exemplary means to determine antiviral activity is with CEM-SS cells and virus (e.g., HIV-1RF) (MOI=0.01) using the XTT (2,3-bis[2-methoxy-4-nitro-5-sulfophenyl]-5-[(phenylamino)carbonyl]-2H-tetrazolium hydroxide) cytoprotection assay, as described by Rice (1993) PNAS 90:9721-9724, and Rice (1997) Antimicrob. Agents Chemother. 41:419-426. Briefly, cells are infected with HIV-1 RF (or other virus to be tested) in the presence of various dilutions of test compounds (thiolesters and controls). The cultures are incubated for seven days. During this time control cultures without protective compounds (i.e., compounds with anti-viral activity) replicate virus, induce syncytia, and result in about 90% cell death. The cell death is measured by XTT dye reduction. XTT is a soluble tetrazolium dye that measures mitochondrial energy output, similar to MTT. Positive controls using dextran sulfate (an attachment inhibitor) or 3′-Azido-2′-3′-dideoxythymidine, AZT (a reverse transcriptase inhibitor) are added to each assay. Individual assays are done in duplicate using a sister plate method.
Effective antiviral concentrations providing 50% cytoprotection (EC50), and cellular growth inhibitory concentrations causing 50% cytotoxicity (IC50) are calculated.
In general terms: Formazan colour is commonly taken as a measure of viable cells.

Setting [1] is: Table 1, in vitro therapeutic index (IC50/EC50).

Under setting [1], `Cc1noc(NS(=O)(=O)c2ccc(-n3sc4ccccc4c3=O)cc2)c1C` [Compound 20 BITA] gave a TI of 3.0.
`CC(=O)NS(=O)(=O)c1ccc(-n2sc3ccccc3c2=O)cc1` [Compound 2 BITA, N-[4-(3-oxo-3H-benz[d]isothiazol-2-yl)phenylsulfonyl] acetamide] displayed a TI under setting [1] of 2.7.
The same measure, in the same setting: the figure for `NS(=O)(=O)c1ccc(NS(=O)(=O)c2ccc(NC(=O)c3ccccc3SSc3ccccc3C(=O)Nc3ccc(S(=O)(=O)Nc4ccc(S(N)(=O)=O)cc4)cc3)cc2)cc1` [Compound 22 D] is 18.7.
For `CC(=O)NS(=O)(=O)c1ccc(NC(=O)c2ccccc2SC(=O)c2ccccc2)cc1` [Compound 41], the TI (Table 5, IC50/EC50) was determined as 16.6.
Under setting [1], `COc1cc(NS(=O)(=O)c2ccc(-n3sc4ccccc4c3=O)cc2)nc(OC)n1` [Compound 6 BITA] came in with a TI of 7.4.
Where the note is “Table 3, IC50/EC50”, `CC(=O)Nc1ccc(S(=O)(=O)Nc2ccc(S(=O)(=O)c3ccc(NC(=O)c4ccccc4SSc4ccccc4C(=O)Nc4ccc(S(=O)(=O)c5ccc(NS(=O)(=O)c6ccc(NC(C)=O)cc6)cc5)cc4)cc3)cc2)cc1` [Compound 28 D] gave a TI of 12.7.
With `COc1ccnc(NS(=O)(=O)c2ccc(-n3sc4ccccc4c3=O)cc2)n1` [Compound 7 BITA], the TI under setting [1] worked out at 6.5.
For `COc1ccc(NS(=O)(=O)c2ccc(NC(=O)c3ccccc3SSc3ccccc3C(=O)Nc3ccc(S(=O)(=O)Nc4ccc(OC)nn4)cc3)cc2)nn1` [Compound 12 D], the TI under setting [1] is 12.8.
The compound `O=C(Nc1ccc(S(=O)(=O)Nc2cnc3ccccc3n2)cc1)c1ccccc1SSc1ccccc1C(=O)Nc1ccc(S(=O)(=O)Nc2cnc3ccccc3n2)cc1` [Compound 17 D] came in with a TI under setting [1] of 30.8.
In turn, `COc1ccc(C(=O)Sc2ccccc2C(=O)Nc2ccc(S(=O)(=O)NC(C)=O)cc2)cc1` [Compound 42] registered a TI (Table 5, IC50/EC50) of 15.6.
Under “Table 2, IC50/EC50”, `NS(=O)(=O)c1ccc(CCn2sc3ccccc3c2=O)cc1` [Compound 24 BITA] yielded a TI of 22.7.
`O=C(NS(=O)(=O)c1ccc(NC(=O)c2ccccc2SSc2ccccc2C(=O)Nc2ccc(S(=O)(=O)NC(=O)c3ccccc3)cc2)cc1)c1ccccc1` [Compound 3 D] yielded a TI under setting [1] of 14.2.
Under “Table 10, IC50/EC50”, `CC(=O)NS(=O)(=O)c1ccc(NC(=O)c2ccccc2SC(=O)CCC[n+]2ccccc2)cc1` [Compound 54] returned a TI of 17.3.
`CC(=O)NS(=O)(=O)c1ccc(NC(=O)c2ccccc2SC(=O)CCCC[n+]2ccccc2)cc1` [Compound 45, N-[2-(5-pyridinio-valeroylthio)benzoyl]sulfacetamide bromide] displayed a TI (Table 5, IC50/EC50) of over 51; a TI (Table 6, IC50/EC50) of over 51; a TI (Table 10, IC50/EC50) of over 51.
`Cc1cc(NS(=O)(=O)c2ccc(-n3sc4ccccc4c3=O)cc2)nc(C)n1` [Compound 19 BITA]: the TI under setting [1] is 6.1.
